Assay results reported in patent publication US20260131011A1, “Anti-Viral Therapeutic Peptides, Conjugates, and Methods of Use Thereof” (published 2026).

B1: polypeptide of SEQ ID NO. 602 (peptide)
peptide: DISGINASVVNIQKPIDPLNEVAKPLNEPLIDLQELGSGSGC
B2: polypeptide of SEQ ID NO. 612 (peptide)
peptide: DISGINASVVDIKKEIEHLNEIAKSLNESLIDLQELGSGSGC
B3: polypeptide of SEQ ID NO. 613 (peptide)
peptide: B2 peptide with S25N
B4: polypeptide of SEQ ID NO. 630 (peptide)
peptide: EAAAKEAAAKEAAAKEAAAKEAAAKEAAAKEAAAKEAAAKC

Target: SARS-CoV-2 full-length Spike, WT D614G (SARS-CoV-2, UniProt P0DTC2)
Test: cell-based or functional assay

| Binder | IC50, pseudovirus neutralization, WT D614G [µM] | IC80, pseudovirus neutralization, WT D614G [µM] |
| --- | --- | --- |
| B1 | > 10 | > 10 |
| B2 | > 10 | > 10 |
| B3 | > 10 | > 10 |
| B4 | > 10 | > 10 |

Where a chain is given by its changes, count along the chain named.
